Anti-infective test results gathered from many reports (values: NIAID ChemDB through PubChem).

All rows: growth or infection tests; species: Candida glabrata

Rows are shuffled and stem from different studies. A number after MIC or MFC names an inhibition level or a share of isolates. ECn: concentration that inhibits the pathogen or its effect by n%. Blank or dashed fields: not listed here.

SMILES | measure | strain or isolate | conditions | method | value
CCOc1ccc2nc3cc(N=C4NC(=O)/C(=C\c5ccc([N+](=O)[O-])cc5)S4)ccc3c(N)c2c1 | MFC | - | - | broth dilution | >1000 µg/mL
O=P(O)(O)OP(=O)(O)OP(=O)(O)O | MIC | MC426 | - | broth dilution | 390 µg/mL
Clc1ccc(C(c2ccccc2)n2cncn2)cc1 | MFC | - | - | broth dilution | 128 µg/mL
CCCCCCCCCCCCCCCC(=O)NC(CCCCN)C(=O)NC(CCCCN)C(N)=O | MIC | 4682 | - | broth dilution | 8 µg/mL
CC(C)C[C@H](N)C(=O)O | MFC100 | CCUG 32725 | - | broth dilution | >72000 µg/mL
O=C(c1ccccc1)C(c1ccccc1)n1ccnc1 | MIC90 | - | - | agar | 128 µg/mL
CC1CC(=O)N(c2ccc(Cl)cc2)C1=O | MIC | CCC 115-2000 | - | broth dilution / turbidity | 250 µg/mL
Clc1ccccc1C(c1ccccc1)(c1ccccc1)n1ccnc1 | EC90 | 40 isolates | pH 6 | broth dilution | 4 µg/mL
CCC(C)CC(C)CCCCCCCCC(=O)N[C@H]1C[C@@H](O)[C@H](NCCN)NC(=O)[C@@H]2[C@@H](O)CCN2C(=O)[C@H]([C@H](O)CCN)NC(=O)[C@H]([C@H](O)[C@@H](O)c2ccc(O)cc2)NC(=O)[C@@H]2C[C@@H](O)CN2C(=O)[C@H]([C@@H](C)O)NC1=O | MIC | C624 | - | broth dilution | 0.03 µg/mL
C[C@@H]1CC(=O)N(c2ccc([N+](=O)[O-])cc2)C1=O | MIC | CCC 115-2000 | - | broth dilution / turbidity | 125 µg/mL
O=c1c(N2CCOCC2)c(N2CCN(S(=O)(=O)Cc3ccccc3)CC2)cnn1-c1ccccc1 | MIC | C624 | - | broth dilution | 0.4 µg/mL
Clc1ccc(COC(Cn2ccnc2)c2ccc(Cl)cc2Cl)c(Cl)c1 | EC90 | 40 isolates | pH 5 | broth dilution | 8 µg/mL
Clc1ccc(C(c2ccccc2)n2nnc3ccccc32)cc1 | MIC90 | - | - | agar | >256 µg/mL
CC[C@@H]([C@H](C)O)n1ncn(-c2ccc(N3CCN(c4ccc(OC[C@@H]5CO[C@@](Cn6cncn6)(c6ccc(F)cc6F)C5)cc4)CC3)cc2)c1=O | MIC | 8655 | - | broth dilution | 1 µg/mL
CC(C)CC(O)C(=O)O | EC50 | G 212 | - | broth dilution | 18000 µg/mL
c1ccc(C(c2ccccc2)n2ccnc2)cc1 | MIC90 | - | - | agar | 0.5 µg/mL
C[C@@H](c1ncncc1F)[C@](O)(Cn1cncn1)c1ccc(F)cc1F | EC90 | 40 isolates | pH 4 | broth dilution | >16 µg/mL
C=CCc1ccc(OC)c(OC)c1 | MIC90 | 2624 | - | turbidity | 350 µg/mL
C[C@@H](c1ncncc1F)[C@](O)(Cn1cncn1)c1ccc(F)cc1F | MIC | 8653 | - | broth dilution | 0.25 µg/mL
Nc1ncccc1-c1cc(Cc2ccc(COc3ccccn3)cc2)no1 | MIC90 | - | - | broth dilution | 0.06 µg/mL
CC[C@@H]([C@H](C)O)n1ncn(-c2ccc(N3CCN(c4ccc(OC[C@@H]5CO[C@@](Cn6cncn6)(c6ccc(F)cc6F)C5)cc4)CC3)cc2)c1=O | MIC | 40 isolates | pH 6 | broth dilution | 2 µg/mL
CC1CC(=O)N(CCCCc2ccccc2)C1=O | MIC | CCC 115-2000 | - | broth dilution / turbidity | 125 µg/mL
C[C@@H](c1ncncc1F)[C@](O)(Cn1cncn1)c1ccc(F)cc1F | MIC50 | - | - | broth dilution | 0.13 µg/mL
C[C@@H]1C(=O)N(CCCCc2ccccc2)C(=O)[C@@H]1C | MIC | CCC 115-2000 | - | broth dilution / turbidity | 62.5 µg/mL
CCC(C)CC(C)CCCCCCCCC(=O)N[C@H]1C[C@@H](O)[C@H](NCCN)NC(=O)[C@@H]2[C@@H](O)CCN2C(=O)[C@H]([C@H](O)CCN)NC(=O)[C@H]([C@H](O)[C@@H](O)c2ccc(O)cc2)NC(=O)[C@@H]2C[C@@H](O)CN2C(=O)[C@H]([C@@H](C)O)NC1=O | MIC | 1 | - | broth dilution | 0.063 µg/mL

Again, the opening 4 rows:

SMILES | measure | strain or isolate | conditions | method | value
CCOc1ccc2nc3cc(N=C4NC(=O)/C(=C\c5ccc([N+](=O)[O-])cc5)S4)ccc3c(N)c2c1 | MFC | - | - | broth dilution | >1000 µg/mL
O=P(O)(O)OP(=O)(O)OP(=O)(O)O | MIC | MC426 | - | broth dilution | 390 µg/mL
Clc1ccc(C(c2ccccc2)n2cncn2)cc1 | MFC | - | - | broth dilution | 128 µg/mL
CCCCCCCCCCCCCCCC(=O)NC(CCCCN)C(=O)NC(CCCCN)C(N)=O | MIC | 4682 | - | broth dilution | 8 µg/mL